Results as given in article PMC12432892, “Therapeutic applications of interface-mimicking peptides for targeting the SARS-CoV-2 NSP12-NSP8 RdRp complex” (Molecular Therapy, 2025).

Target: SARS-CoV-2 NSP12 (SARS-CoV-2), P0DTD1

LNNIINNARDGCVPLNIIPLTTAAKLMVV (modifications not checked) [N8-Pepβ]
IC50 of inhibition of SARS-CoV-2 RdRp activity in the cell-based minigenome (luciferase) assay; pair blocked: NSP12-NSP8: 58 µM

ARDGCVPLNIIPLTTAAKLMVVIPD (modifications not checked) [N8-PepβD]
IC50 of inhibition of SARS-CoV-2 RdRp activity in the cell-based minigenome (luciferase) assay; pair blocked: NSP12-NSP8: 31.2 µM
